Results of unrelated studies side by side (data: NIAID ChemDB).

Common to all: whole-cell or culture tests; organism: HIV-1; cells: C8166; measure: EC50

Conditions beyond the fields shown may differ between rows.

compound	read by	changes	strain or isolate	value
Cc1cc(S(N)(=O)=O)ccc1NC(=O)COc1ccc(Cl)cc1NS(=O)(=O)c1ccccc1	syncytia		IIIB	2.01 µM
CC[C@]1(c2ccccc2)Oc2cccnc2-n2cccc2C1=O			IIIB	0.56 µM
N#Cc1ccc2oc3cc(F)ccc3c2c1	syncytia			12.99 µg/mL
Cc1cn([C@H]2C[C@H](N=[N+]=[N-])[C@@H](CO)O2)c(=O)[nH]c1=O	p24 / syncytia			0.016 µM
O=c1c(O[C@@H]2O[C@H](CO)[C@@H](O)[C@H](O)[C@H]2O)c(-c2ccc(O)cc2)oc2cc(O)cc(O)c12				10 µg/mL
S=C(NCCc1ccccn1)Nc1ccc(Br)cn1	cytopathic effect / MTT		IIIB	<0.015 µM
COC(=O)c1ccc(COP(=O)(O)OC[C@H]2O[C@@H](n3cc(C)c(=O)[nH]c3=O)C[C@@H]2N=[N+]=[N-])cc1	syncytia		IIIB	0.04 µM
C=C(C)[C@@]1(OC(C)=O)[C@H](OC(C)=O)[C@@H]2[C@H](OC(C)=O)[C@@]3(C)O[C@@]4([C@@H]3OC(=O)c3ccccc3)[C@@H](OC(C)=O)[C@@H](C)C[C@H]4[C@@]2(O)[C@H](C)[C@@H]1OC(=O)c1ccccc1	cytopathic effect / syncytia		IIIB	12.55 µg/mL
Cc1cn([C@H]2C[C@H](N=[N+]=[N-])[C@@H](CO)O2)c(=O)[nH]c1=O	antigen		IIIB	<0.08 µg/mL
Nc1ccn([C@@H]2CO[C@H](CO)S2)c(=O)n1	p24	RT-D67N K70R T215Y K219Q	HXB2	6.8 µM
NC(=O)c1nn([C@@H]2O[C@H](CO)[C@@H](O)[C@H]2O)cc1I	syncytia		IIIB	<20 µM
O=C(CC1(O)C(=O)Nc2ccc(Cl)cc21)c1ccccc1	p24 / ELISA	K103N		177 µM
Oc1cc(O)c2c(c1)O[C@H](c1ccc(O)c(O)c1)[C@H](O)C2				2 µg/mL
NS(=O)(=O)c1ccc(NC(=O)COc2ccccc2NS(=O)(=O)c2ccccc2)cc1	syncytia		IIIB	8.407 µM
Cc1ccnc2c1NC(=O)c1cccnc1N2C1CC1	ELISA	WAN	Clinical isolate	0.1 µM
COc1ccc2c(c1)CCCN2CCC(=O)N1CCN(c2ccccc2Cl)CC1	syncytia / visual reading		IIIB	11.04 µg/mL
C/C=C/C1C(=O)OCC1CCC(C)=O	p24 / ELISA / antigen		LAI	10.52 µM
O=C1c2ccccc2C(=O)N1CCOC(=S)N(C(=O)c1ccco1)c1ccc(Cl)cc1	cytopathic effect / MTT		IIIB	<0.005 µM
Cc1ccc(S(=O)(=O)Nc2cc(Cl)ccc2OCC(=O)Nc2ccc(S(N)(=O)=O)cc2C)cc1	syncytia		IIIB	1.231 µM
O=[N+]([O-])c1ccc2oc3ccccc3c2c1	syncytia			36.39 µg/mL
CC1=C[C@H]([C@H](O)[C@H](C)[C@@H]2C[C@H]3O[C@]34[C@H]3CC[C@@H]5C(C)(C)O[C@H]6CC(=O)O[C@]65C[C@]3(O)CC[C@@]24C)OC1=O	syncytia		IIIB	42.66 µg/mL
Nc1ccn([C@H]2CC[C@@H](CO)O2)c(=O)n1	p24		RF	0.9 µM
O=[N+]([O-])c1cccc2c1oc1ccccc12	syncytia			42.92 µg/mL
O=c1cc(-c2ccccc2)oc2cc(O)cc(O)c12				20 µg/mL
CC(=O)c1ccc(O)c(CC(O)C(C)(C)O)c1	p24 / syncytia			>8 µg/mL
O=C(CC1(O)C(=O)Nc2ccc(Cl)cc21)c1ccc(Cl)c(Cl)c1	cytopathic effect / syncytia		IIIB	28.47 µM
Cc1cn([C@H]2C[C@H](N=[N+]=[N-])[C@@H](CO)O2)c(=O)[nH]c1=O	cytopathic effect		CBL-1	<0.1 µg/mL
COc1ccc(S(=O)(=O)Nc2ccccc2OCC(=O)Nc2ccc(S(N)(=O)=O)cc2)cc1	syncytia		IIIB	>203 µM
Cc1nc2ccccc2n(CC(=O)N/N=C/c2ccc([N+](=O)[O-])cc2)c1=O	syncytia / visual reading		IIIB	70.83 µM
Nc1ncnc2c1ncn2[C@H]1CC[C@@H](CO)O1	RT activity		HXBc2	<2 µM
Cc1cn([C@H]2C[C@H](N=[N+]=[N-])[C@@H](COP(=O)(OCC(Cl)(Cl)Cl)OCC(Cl)(Cl)Cl)O2)c(=O)[nH]c1=O	antigen		RF	0.7 µM
C=C(C)C(O)Cc1cc(C(C)=O)ccc1O	p24 / syncytia			>50 µg/mL
N#Cc1cccc2c1oc1ccccc12	syncytia			46.7 µg/mL
C=C(C)[C@@H]1CCC2C3(CC[C@]4(C)C(C(C)CC/C=C(/C)C(=O)OC)CC[C@@]24C)CC13CCC(=O)O	syncytia		IIIB	5.1 µM
C=C(C)[C@@]1(OC(=O)c2ccccc2)[C@H](OC(C)=O)[C@@H]2[C@H](OC(C)=O)[C@@]3(C)O[C@@]4([C@@H]3OC(=O)c3ccccc3)[C@@H](O)[C@@H](C)C[C@H]4[C@@]2(O)[C@H](C)[C@@H]1OC(C)=O	cytopathic effect / syncytia		IIIB	11.42 µg/mL
C=CCC1=C[C@@]2(CC=C(C)C)OCOC2=CC1=O	syncytia		IIIB	16 µM
C=C(C)[C@@]12OCO[C@@H]1[C@@H]1[C@H](O)[C@@](C)(O)[C@@H](OC(C)=O)[C@@]3(O)C(C[C@H](C)[C@@H]3O)[C@@]1(Oc1ccccc1)[C@H](C)[C@@H]2OC(=O)c1ccccc1	cytopathic effect / syncytia		IIIB	57.95 µg/mL
C[C@@H]1O[C@@H](Oc2c(-c3cc(O)c(O)c(O)c3)oc3cc(O)cc(O)c3c2=O)[C@H](O)[C@H](O)[C@H]1O				100 µg/mL
COc1ccc2c(c1)CCCN2CCC(=O)N1CCN(c2ccc([N+](=O)[O-])cc2)CC1	syncytia / visual reading		IIIB	5.45 µg/mL
OC[C@H]1O[C@@H](Oc2cc(O)cc3c2C[C@@H](O)[C@@H](c2ccc(O)c(O)c2)O3)[C@H](O)[C@@H](O)[C@@H]1O	syncytia		IIIB	58.88 µg/mL
Nc1ccn([C@H]2CC[C@@H](CO)O2)c(=O)n1	syncytia		IIIB	0.05 µM
COc1cc([C@@H]2c3c(cc(OC)c(O)c3OC)C[C@H](CO)[C@H]2COS(=O)(=O)[O-])cc(OC)c1O.[Na+]	syncytia		IIIB	71.06 µg/mL
Cc1cn([C@H]2C[C@H](N=[N+]=[N-])[C@@H](COP(=O)(OCc3ccc(C(=O)OC(C)C)cc3)OCc3ccc(C(=O)OC(C)C)cc3)O2)c(=O)[nH]c1=O	syncytia		IIIB	0.08 µM
Cc1cc(S(N)(=O)=O)ccc1NC(=O)COc1ccc(Cl)cc1NS(=O)(=O)c1ccc([N+](=O)[O-])cc1	syncytia		IIIB	3.667 µM
O=C(O[C@@H]1Cc2c(O)cc(O)cc2O[C@@H]1c1ccc(O)c(O)c1)c1cc(O)c(O)c(O)c1				1 µg/mL
Cc1cc(S(N)(=O)=O)ccc1NC(=O)COc1ccccc1NS(=O)(=O)c1ccc([N+](=O)[O-])cc1	syncytia		IIIB	9.519 µM
O=c1cc(-c2ccccc2)oc2cc(O)cc(O)c12	ELISA		IIIB	20 µg/mL
Cc1cc(O)c2c(c1)C(=O)c1cc(O)cc(O[C@@H]3O[C@H](CO)[C@@H](O)[C@H](O)[C@H]3O)c1C2=O	syncytia		IIIB	11.29 µg/mL
C[C@@H]1O[C@@H](Oc2c(-c3cc(O)c(O)c(O)c3)oc3cc(O)cc(O)c3c2=O)[C@H](O)[C@H](O)[C@H]1O	ELISA		IIIB	100 µg/mL
Cc1cn([C@H]2C[C@H](N=[N+]=[N-])[C@@H](COP(=O)(O)OCc3ccc(C(=O)OC(C)(C)C)cc3)O2)c(=O)[nH]c1=O	syncytia		IIIB	0.016 µM
NS(=O)(=O)c1ccc(NC(=O)COc2ccccc2NS(=O)(=O)c2ccc([N+](=O)[O-])cc2)cc1	syncytia		IIIB	4.482 µM
C=CCc1cc2c(c(CC=C(C)C)c1O)OCO2	syncytia		IIIB	62.2 µM
CC(=O)O[C@@]12C[C@@H](C)[C@@]3(O)[C@@H](C=C(CO)C[C@]4(O)C(=O)C(C)=C[C@@H]34)[C@@H]1C2(C)C	p24 / ELISA	PI-resistant (V82F I84V)	RF	4.069 µM
COc1cc(O)ccc1O[C@@H]1O[C@H](CO)[C@@H](O)[C@H](O)[C@H]1O	syncytia		IIIB	55.08 µg/mL
Cc1cccc(C(=O)CC2(O)C(=O)Nc3ccc(Br)cc32)c1	cytopathic effect / syncytia		IIIB	5.71 µM
Nc1ccn([C@H]2CC[C@@H](CO)O2)c(=O)n1	antigen		RF	0.2 µM
CCOC(=O)c1ccc(COP(=O)(OCc2ccc(C(=O)OCC)cc2)OC[C@H]2O[C@@H](n3cc(C)c(=O)[nH]c3=O)C[C@@H]2N=[N+]=[N-])cc1	syncytia		IIIB	0.08 µM
O=c1c(O[C@@H]2O[C@H](CO)[C@@H](O)[C@H](O)[C@H]2O)c(-c2ccc(O)cc2)oc2cc(O)cc(O)c12	ELISA		IIIB	10 µg/mL
COc1ccc(S(=O)(=O)Nc2ccccc2OCC(=O)Nc2ccc(S(N)(=O)=O)cc2C)cc1	syncytia		IIIB	26.6 µM
COc1ccc2c(c1)CCCN2CCC(=O)N1CCN(c2ccc(Cl)cc2)CC1	syncytia / visual reading		IIIB	16.43 µg/mL
COC(=O)c1cc2c(c(OC)c1-c1ccc(N(C)C)cc1)OCO2	fluorescence	SJP-L-5-resistant	IIIB	>608 µM
COc1cc([C@H](O)[C@H](CO)Oc2c(O)cc(C(=O)CCO)cc2O)ccc1O	syncytia / visual reading		IIIB	2.16 µg/mL
Cc1cn([C@H]2C[C@@H](N=[N+]=[N-])[C@@H](CO)O2)c(=O)[nH]c1=O	p24 / ELISA / antigen		LAI	0.00217 µg/mL
O=C1c2ccccc2C(=O)N1CCOC(=S)N(C(=O)c1ccccc1)c1ccccc1	cytopathic effect / MTT		IIIB	<0.8 µM
Cc1cn([C@H]2C[C@H](N=[N+]=[N-])[C@@H](CO)O2)c(=O)[nH]c1=O	syncytia		IIIB	0.0108 µM
COc1cccc(N2CCN(C(=O)CCN3CCCc4cc(OC)ccc43)CC2)c1	syncytia / visual reading		IIIB	20.43 µg/mL
O=C(CC1(O)C(=O)Nc2ccc(Cl)cc21)c1ccccc1Cl	p24 / ELISA	K103N		129 µM
O=C1c2ccccc2C(=O)N1CCOC(=S)N(C(=O)c1cccnc1Cl)c1ccc(Cl)cc1	cytopathic effect / MTT		IIIB	<0.005 µM
C=CCc1cc(O)c2c(c1)OCO2	syncytia		IIIB	102.2 µM
C=C(C)[C@@]1(OC(=O)c2ccccc2)[C@H](OC(C)=O)[C@@H]2[C@H](OC(C)=O)[C@@]3(C)O[C@@]4([C@@H]3OC(=O)c3ccccc3)[C@@H](OC(C)=O)[C@@H](C)C[C@H]4[C@@]2(O)[C@H](C)[C@@H]1OC(C)=O	cytopathic effect / syncytia		IIIB	61.21 µg/mL
CC[C@@]1(O)C(=O)OCc2c1cc1n(c2=O)Cc2c-1nc1ccccc1c2CO	syncytia		IIIB	0.0008 µg/mL
COC(=O)c1ccc(COP(=O)(OCc2ccc(C(=O)OC)cc2)OC[C@H]2O[C@@H](n3cc(C)c(=O)[nH]c3=O)C[C@@H]2N=[N+]=[N-])cc1	syncytia		IIIB	0.016 µM
COC(=O)c1cc(O)c(OS(=O)(=O)[O-])c(OC)c1.[Na+]	syncytia		IIIB	110 µg/mL
COc1ccc2oc3ccc([N+](=O)[O-])cc3c2c1	syncytia			8 µg/mL

9 of the rows above, restated:

compound	read by	changes	strain or isolate	value
C=C(C)[C@@]12OCO[C@@H]1[C@@H]1[C@H](O)[C@@](C)(O)[C@@H](OC(C)=O)[C@@]3(O)C(C[C@H](C)[C@@H]3O)[C@@]1(Oc1ccccc1)[C@H](C)[C@@H]2OC(=O)c1ccccc1	cytopathic effect / syncytia		IIIB	57.95 µg/mL
Cc1cn([C@H]2C[C@@H](N=[N+]=[N-])[C@@H](CO)O2)c(=O)[nH]c1=O	p24 / ELISA / antigen		LAI	0.00217 µg/mL
C=CCc1cc2c(c(CC=C(C)C)c1O)OCO2	syncytia		IIIB	62.2 µM
C[C@@H]1O[C@@H](Oc2c(-c3cc(O)c(O)c(O)c3)oc3cc(O)cc(O)c3c2=O)[C@H](O)[C@H](O)[C@H]1O				100 µg/mL
COC(=O)c1ccc(COP(=O)(OCc2ccc(C(=O)OC)cc2)OC[C@H]2O[C@@H](n3cc(C)c(=O)[nH]c3=O)C[C@@H]2N=[N+]=[N-])cc1	syncytia		IIIB	0.016 µM
C=CCC1=C[C@@]2(CC=C(C)C)OCOC2=CC1=O	syncytia		IIIB	16 µM
Nc1ccn([C@H]2CC[C@@H](CO)O2)c(=O)n1	syncytia		IIIB	0.05 µM
CC(=O)c1ccc(O)c(CC(O)C(C)(C)O)c1	p24 / syncytia			>8 µg/mL
Cc1cc(O)c2c(c1)C(=O)c1cc(O)cc(O[C@@H]3O[C@H](CO)[C@@H](O)[C@H](O)[C@H]3O)c1C2=O	syncytia		IIIB	11.29 µg/mL

ECn is the concentration giving n% inhibition of infection, replication or growth. An empty or dashed field is not shown.